In paper PMC9821907, “Synthesis and Antiprotozoal Activity of Azabicyclo-Nonane Pyrimidine Hybrids” (Molecules, 2022):
“And” between values parts separate entries of the source, which are not always exact repeats. Equal entries are not always repeated.

Legend:
[1] = system: P. falciparum NF54; assay: In vitro microplate 3H-hypoxanthine incorporation assay against P. falciparum NF54; format: cell-based, Plasmodium falciparum; conditions: L-6 cytotoxicity versus P. falciparum NF54
Method: (§1) Compounds were tested for their activities against Plasmodium falciparum NF54 (sensitive to chloroquine) and Trypanosoma brucei rhodesiense STIB900, via serial dilution assays. Furthermore, selected compounds were tested against the K1 strain of Plasmodium falciparum (resistant against chloroquine, sulfadoxine and pyrimethamine). Their cytotoxicity was determined with rat skeletal myoblasts (L-6 cells).
(§2) In vitro activity against erythrocytic stages of P. falciparum was determined using a ^3H-hypoxanthine incorporation assay using the drug sensitive NF54 strain [27] or the chloroquine- and pyrimethamine-resistant K1 strain [28]. Compounds were dissolved in DMSO at 10 mg/mL and further diluted in medium before being added to parasite cultures incubated in RPMI 1640 medium without hypoxanthine, supplemented with HEPES (5.94 g/L), NaHCO3 (2.1 g/L), neomycin (100 U/mL), Albumax® (5 g/L) and washed human red cells A+ at 2.5% haematocrit (0.3% parasitaemia). Serial drug dilutions of eleven 3-fold dilution steps covering a range from 100 to 0.002 μg/mL were prepared. The 96-well plates were incubated in a humidified atmosphere at 37 °C; 4% CO2, 3% O2, 93% N2. After 48 h, 0.05 mL of ^3H-hypoxanthine (= 0.5 μCi) was added to each well of the plate. The plates were incubated for a further 24 h under the same conditions. The plates were then harvested with a Betaplate™ cell harvester (Wallac, Zurich, Switzerland), and the red blood cells transferred onto a glass fibre filter then washed with distilled water. The dried filters were inserted into a plastic foil with 10 mL of scintillation fluid, and counted in a Betaplate™ liquid scintillation counter (Wallac, Zurich, Switzerland). IC50 values were calculated from sigmoidal inhibition curves by linear regression using Microsoft Excel. Chloroquine (Sigma C6628) was used as control.

[2] = system: T. brucei rhodesiense STIB900; assay: In vitro microplate resazurin assay against T. brucei rhodesiense; format: cell-based, Trypanosoma brucei rhodesiense; conditions: L-6 cytotoxicity versus T. b. rhodesiense
Method: as §1
Minimum essential medium (50 µL) supplemented with 25 mM HEPES, 1g/L additional glucose, 1% MEM non-essential amino acids (100×), 0.2 mM 2-mercaptoethanol, 1mM Na-pyruvate and 15% heat-inactivated horse serum was added to each well of a 96-well microtiter plate. Serial drug dilutions of eleven 3-fold dilution steps covering a range from 100 to 0.002 μg/mL were prepared. Then 4 × 10^3 bloodstream forms of T. b. rhodesiense STIB 900 in 50 µL was added to each well and the plate incubated at 37 °C under a 5 % CO2 atmosphere for 70 h. Next, 10 µL resazurin solution (resazurin, 12.5 mg in 100 mL double-distilled water) was added to each well and incubation continued for a further 2–4 h. Then the plates were read with a Spectramax Gemini XS microplate fluorometer (Molecular Devices Cooperation, Sunnyvale, CA, USA) using an excitation wave length of 536 nm and an emission wave length of 588 nm. Data were analyzed with the graphic programme Softmax Pro (Molecular Devices Cooperation, Sunnyvale, CA, USA), which calculated IC50 values by linear regression and 4-parameter logistic regression from the sigmoidal dose inhibition curves. Melarsoprol (Arsobal Sanofi-Aventis, received from WHO) was used as control.

[3] = system: P. falciparum K1; assay: In vitro microplate 3H-hypoxanthine incorporation assay against P. falciparum K1; format: cell-based, Plasmodium falciparum; conditions: L-6 cytotoxicity versus P. falciparum K1
Method: as §1, §2

Cc1cc(N2CCC3(N4CCCCC4)CC(c4ccccc4)C2C(c2ccccc2)C3)nc(N)n1 (racemic) [Compound 5, rac-4-[(7R,8R)-7,8-diphenyl-5-(piperidin-1-yl)-2-azabicyclo[3.2.2]nonan-2-yl]-6-methylpyrimidin-2-amine]
S.I. = IC50 (Cyt.)/IC50 (P.f.NF54) [1]: 50.2
S.I. = IC50 (Cyt.)/IC50 (T.b.r.) [2]: 3.22

Cc1cc(N2CCC3(N4CCCC4)CC(c4ccccc4)C2C(c2ccccc2)C3)nc(N)n1 (racemic) [Compound 6, rac-4-[(7R,8R)-7,8-diphenyl-5-(pyrrolidin-1-yl)-2-azabicyclo[3.2.2]nonan-2-yl]-6-methylpyrimidin-2-amine]
S.I. = IC50 (Cyt.)/IC50 (P.f.NF54) [1]: 142.5
S.I. = IC50 (Cyt.)/IC50 (T.b.r.) [2]: 62.90–158.4 and 77.89

Nc1cc(N2CCC3(N4CCCCC4)CC(c4ccccc4)C2C(c2ccccc2)C3)nc(N)n1 (racemic) [Compound 9, rac-6-[(7R,8R)-7,8-diphenyl-5-(piperidin-1-yl)-2-azabicyclo[3.2.2]nonan-2-yl]pyrimidine-2,4-diamine]
S.I. = IC50 (Cyt.)/IC50 (P.f.NF54) [1]: 190.8
S.I. = IC50 (Cyt.)/IC50 (T.b.r.) [2]: 6.24
S.I. = IC50 (Cyt.)/IC50 (P.f.K1) [3]: 103.6–155.6 and 103.6

Nc1cc(N2CCC3(N4CCCC4)CC(c4ccccc4)C2C(c2ccccc2)C3)nc(N)n1 (racemic) [Compound 10, rac-6-[(7R,8R)-7,8-diphenyl-5-(pyrrolidin-1-yl)-2-azabicyclo[3.2.2]nonan-2-yl]pyrimidine-2,4-diamine]
S.I. = IC50 (Cyt.)/IC50 (P.f.NF54) [1]: 142.5
S.I. = IC50 (Cyt.)/IC50 (T.b.r.) [2]: 13.20
S.I. = IC50 (Cyt.)/IC50 (P.f.K1) [3]: 52.19

Cc1cc(N2CCC3(N4CCCCC4)C[C@H](c4ccccc4)C2[C@@H](c2ccccc2)C3)nc(Cl)n1 (racemic) [Compound 13, rac-(7R,8R)-2-(2-chloro-6-methylpyrimidin-4-yl)-7,8-diphenyl-5-(piperidin-1-yl)-2-azabicyclo[3.2.2]nonane]
S.I. = IC50 (Cyt.)/IC50 (P.f.NF54) [1]: 4.47
S.I. = IC50 (Cyt.)/IC50 (T.b.r.) [2]: 2.00
S.I. = IC50 (Cyt.)/IC50 (P.f.K1) [3]: 5.45

Cc1cc(N2CCC3(N4CCCC4)C[C@H](c4ccccc4)C2[C@@H](c2ccccc2)C3)nc(Cl)n1 (racemic) [Compound 14, rac-(7R,8R)-2-(2-chloro-6-methylpyrimidin-4-yl)-7,8-diphenyl-5-(pyrrolidin-1-yl)-2-azabicyclo[3.2.2]nonane]
S.I. = IC50 (Cyt.)/IC50 (P.f.NF54) [1]: 9.25
S.I. = IC50 (Cyt.)/IC50 (T.b.r.) [2]: 5.86
S.I. = IC50 (Cyt.)/IC50 (P.f.K1) [3]: 26.30

Cc1cc(N2CCC3(N4CCCCC4)C[C@H](c4ccccc4)C2[C@@H](c2ccccc2)C3)nc(N2CCCC2)n1 (racemic) [Compound 17, rac-(7R,8R)-2-[6-methyl-2-(pyrrolidin-1-yl)pyrimidin-4-yl]-7,8-diphenyl-5-(piperidin-1-yl)-2-azabicyclo[3.2.2]nonane]
S.I. = IC50 (Cyt.)/IC50 (P.f.NF54) [1]: 37.65
S.I. = IC50 (Cyt.)/IC50 (T.b.r.) [2]: 40.40

Cc1cc(N2CCC3(N4CCCC4)C[C@H](c4ccccc4)C2[C@@H](c2ccccc2)C3)nc(N2CCCC2)n1 (racemic) [Compound 18, rac-(7R,8R)-2-[6-methyl-2-(pyrrolidin-1-yl)pyrimidin-4-yl]-7,8-diphenyl-5-(pyrrolidin-1-yl)-2-azabicyclo[3.2.2]nonane]
S.I. = IC50 (Cyt.)/IC50 (P.f.NF54) [1]: 110.7
S.I. = IC50 (Cyt.)/IC50 (P.f.K1) [3]: 254.5

Cc1cc(N2CCC3(N4CCCCC4)C[C@H](c4ccccc4)C2[C@@H](c2ccccc2)C3)nc(N2CCCCC2)n1 (racemic) [Compound 21, rac-(7R,8R)-2-[6-methyl-2-(piperidin-1-yl)pyrimidin-4-yl]-7,8-diphenyl-5-(piperidin-1-yl)-2-azabicyclo[3.2.2]nonane]
S.I. = IC50 (Cyt.)/IC50 (P.f.NF54) [1]: 22.06
S.I. = IC50 (Cyt.)/IC50 (T.b.r.) [2]: 11.89

Cc1cc(N2CCC3(N4CCCC4)C[C@H](c4ccccc4)C2[C@@H](c2ccccc2)C3)nc(N2CCCCC2)n1 (racemic) [Compound 22, rac-(7R,8R)-2-[6-methyl-2-(piperidin-1-yl)pyrimidin-4-yl]-7,8-diphenyl-5-(pyrrolidin-1-yl)-2-azabicyclo[3.2.2]nonane]
S.I. = IC50 (Cyt.)/IC50 (P.f.NF54) [1]: 16.58
S.I. = IC50 (Cyt.)/IC50 (T.b.r.) [2]: 62.90–158.4 and 62.90
